Anti-infective test results gathered from many reports (values: NIAID ChemDB through PubChem).

Common to all: growth or infection tests; species: Cryptococcus neoformans

Blank or dashed fields: not listed here. Lines come from different laboratories, so protocols vary. A number after MIC or MFC names an inhibition level or a share of isolates. Inhibition is in % at the dose shown (toxicity tests: loss of growth or viability).

SMILES	dose	strain	endpoint	method	result
Cc1nc(NCCCCNc2ccnc3cc(Cl)ccc23)nc(-c2ccccc2)c1C(=O)OC(C)C	-	27JF	MIC99	-	16 µg/mL
CC1(C)O[C@H]2[C@H](O)[C@@H](N=[N+]=[N-])C=C(c3ccc(C=O)cc3)[C@H]2O1	125 µg/mL	ATCC 32264	inhibition	broth dilution / turbidity	11.9%
CN[C@H]1CC[C@@H](c2ccc(Cl)c(Cl)c2)c2ccccc21	-	Bt50	MIC90	broth dilution	6 µg/mL
Cn1nc(Cc2ccc(Cl)cc2)c2ccccc2c1=O	-	Clinical isolate (IM 972724)	MIC50	broth dilution	3.9 µg/mL
CCOC(=O)c1cnc(NCCCCNc2ccnc3cc(Cl)ccc23)nc1C	-	F-10	MIC99	-	4 µg/mL
NCCCC[C@H](NC(=O)[C@@H](N)CCCCN)C(=O)N[C@@H](CCC(N)=O)C(=O)N[C@@H](CCCN=C(N)N)C(=O)O	25 µM	ATCC 32264	inhibition	-	62%
C[C@@H](c1ncncc1F)[C@](O)(Cn1cncn1)c1ccc(F)cc1F	-	Clinical isolate (IM 031633)	MIC	broth dilution	0.25 µg/mL
C[C@@H](n1cnc2cc(Cl)ccc2c1=O)[C@](O)(Cn1cncn1)c1ccc(F)cc1F	-	Isolate 158.03	MFC	-	20 µg/mL
CCOC(=O)c1c(C)nc(NCCCCNc2ccnc3cc(Cl)ccc23)nc1-c1ccc(F)cc1	-	ATCC 28957	MIC99	-	1.4 µg/mL
C[C@@H](c1ncncc1F)[C@](O)(Cn1cncn1)c1ccc(F)cc1F	-	B 32480	MIC	broth dilution	0.031 µg/mL
CCC(C)n1ncn(-c2ccc(N3CCN(c4ccc(OC[C@H]5CO[C@](Cn6cncn6)(c6ccc(Cl)cc6Cl)O5)cc4)CC3)cc2)c1=O	-	A26037	MFC99	-	>2 µg/mL
Oc1ccccc1N=Cc1ccccc1	-	WP	MIC99	-	8 µg/mL
C=C1CO[C@H]2[C@@H](C)OC(OC[C@@]34C[C@H]5[C@H](C)CC[C@@H]5[C@@]5(C=O)C[C@@H]3C=C(C(C)C)[C@@]45C(=O)O)C[C@@H]12	-	22 strains (serotype C)	Mean MIC	-	0.587 µg/mL
O=[N+]([O-])c1ccc(C=Nc2ccccc2O)cc1	-	96806	MIC99	-	11.3 µg/mL
N=C(N)c1ccc2nc(-c3ccc(-c4nc5ccc(C(=N)N)cc5[nH]4)[nH]3)[nH]c2c1	-	9 strains	Geometric mean MFC	-	0.42 µg/mL

Repeating the final 2 entries:

{"SMILES": "O=[N+]([O-])c1ccc(C=Nc2ccccc2O)cc1", "strain": "96806", "endpoint": "MIC99", "result": "11.3 µg/mL"}
{"SMILES": "N=C(N)c1ccc2nc(-c3ccc(-c4nc5ccc(C(=N)N)cc5[nH]4)[nH]3)[nH]c2c1", "strain": "9 strains", "endpoint": "Geometric mean MFC", "result": "0.42 µg/mL"}